Source: patent publication US5866397A, “Human protein tyrosine phosphatase OB protein” (Merck & Co., Inc., priority 1997, dated 1999)

Assays:
[1] = system: mononucleated TRAP positive cells; assay: Formation of mononucleated TRAP positive cells in the co-culture; format: cell-based, mouse; conditions: ALN 10^-5 M, orthovanadate 10^-5 M, PAO 2×10^-7 M
[2] = system: multinucleated TRAP positive osteoclast-like cells
[3] = system: osteoblasts and bone marrow cells
[4] = orthovanadate 10 μM or phenylarsine oxide 0.2 μM

O=[As]c1ccccc1 (stereo not shown)
development of mononucleated TRAP positive cells [1]: did not block
inhibition of formation of multinucleated TRAP positive cells ([2]; 2×10^-7 M, PAO added after two days, counted at day seven (FIG. 10C), geldanamycin): completely inhibited
inhibition of formation of multinucleated TRAP positive cells, in words ([2]; inhibitor added to co-cultured cells, no concentration tied to statement): strongly inhibited
inhibition of formation of the fused TRAP positive cells, in words [2, 4]: markedly inhibited
IC50 ([2]; read-out: IC50, formation of multinucleated TRAP positive cells, D3-treated mouse co-culture, seven days (FIG. 5A, 5B)): 0.2 µM
reduction of the number of resorption pits (rat osteoclasts; 10^-6 M, FIG. 9C, 1440 min, 1 µM): 80%
inhibition of bone resorption, in words (rat osteoclasts; rat osteoclasts on bone slices, 24 hours): potent inhibitors
IC50 (rat osteoclasts; read-out: IC50, bone resorption, rat osteoclasts on bone slices, 24 hours, FIG. 7A, 7B): 0.05 µM
toxicity for osteoblasts or bone marrow cells ([3]; ALN 10^-5 M, orthovanadate 10^-5 M, PAO 2×10^-7 M): no apparent toxicity
effects on the co-cultured osteoblasts [3, 4]: no ill effects
